Anti-infective test results gathered from many reports (values: NIAID ChemDB through PubChem).

All rows: tests in culture; agent: Cryptococcus neoformans

Lines come from different laboratories, so protocols vary.

smiles	method	endpoint	strain or isolate	value
CCOC(=O)c1c(C)nc(NCCCCNc2ccnc3cc(Cl)ccc23)nc1-c1ccccc1[N+](=O)[O-]		MIC99	27JF	16 µg/mL
Cn1nc(Cc2ccc(Cl)cc2)c2ccccc2c1=O	broth dilution	MIC50	Clinical isolate (IM 983036)	≥250 µg/mL
Oc1cccc(C=Nc2ccccc2O)c1		MIC99	F-10	8 µg/mL
O=C1/C(=C/c2ccc3c(c2)OCO3)CCc2ccccc21		MIC	Farwania	100 µg/mL
CCOC(=O)c1c(C)nc(NCCCCNc2ccnc3cc(Cl)ccc23)nc1-c1ccc(F)cc1		MIC99	WP	5.7 µg/mL
CCc1ccc(/C=C2\CCc3ccccc3C2=O)cc1		MIC	93/V	12.5 µg/mL
C[C@@H](c1nc(-c2ccc(C#N)cc2)cs1)[C@](O)(Cn1cnnc1)c1ccc(F)cc1F		MIC50	32 isolates	0.008 µg/mL
COc1ccc(/C=C2\COc3ccccc3C2=O)cc1OC		MIC	93/V	50 µg/mL
Oc1ccccc1N=Cc1ccc2c(c1)OCO2	broth dilution	MIC	WP	5.7 µg/mL
COC1CC2CCC(C)C(O)(O2)C(=O)C(=O)N2CCCCC2C(=O)OC(C(C)CC2CCC(O)C(OC)C2)CC(=O)C(C)/C=C(\C)C(O)[C@@](OC)(N(O)C(=O)OCC(C)C)C(=O)C(C)CC(C)/C=C/C=C/C=C/1C		MFC	FRR1	>100 µg/mL
CCC(C)CC(C)CCCCCCCCC(=O)N[C@H]1C[C@@H](O)[C@H](NCCN)NC(=O)[C@@H]2[C@@H](O)CCN2C(=O)[C@H]([C@H](O)CCN)NC(=O)[C@H]([C@H](O)[C@@H](O)c2ccc(O)cc2)NC(=O)[C@@H]2C[C@@H](O)CN2C(=O)[C@H]([C@@H](C)O)NC1=O	broth dilution	MIC	B 34336	8 µg/mL
CCOC(=O)c1c(C)nc(OCCCNc2ccnc3cc(Cl)ccc23)nc1-c1ccccc1		MIC99	C-3-1	2 µg/mL
C[C@@H]([C@@](O)(Cn1cncn1)c1ccc(F)cc1F)S(C)(=O)=O		MIC	R716 (AZOLE-R)	>1000 µM
C[C@@H](n1ncn(-c2ccc(OCC(F)(F)C(F)F)cc2)c1=O)[C@](O)(Cn1cncn1)c1ccc(F)cc1F		MFC	DUMC 135.97	0.5 µg/mL
C[C@@H](n1cnc2cc(Cl)ccc2c1=O)[C@](O)(Cn1cncn1)c1ccc(F)cc1F		MIC	Isolate 133.95	0.078 µg/mL
COc1ccc2c(c1)C(=O)/C(=C/c1ccccc1OC)CO2		MIC	Farwania	3 µg/mL
CN[C@H]1CC[C@@H](c2ccc(Cl)c(Cl)c2)c2ccccc21	broth dilution	MFC	XL1495	8 µg/mL
CC[C@@H]([C@H](C)O)n1ncn(-c2ccc(N3CCN(c4ccc(OC[C@@H]5CO[C@@](Cn6cncn6)(c6ccc(F)cc6F)C5)cc4)CC3)cc2)c1=O		MIC	89-610	0.25 µg/mL
Oc1ccc(O)c(C=Nc2ccccc2O)c1	broth dilution	MIC	C-3-1	5.7 µg/mL
COc1ccccc1/C=C1\COc2ccc(-c3ccccc3)cc2C1=O		MIC	25	25 µg/mL
O=[N+]([O-])c1ccc(C=Nc2ccccc2O)cc1		MIC99	C-3-1	8 µg/mL
COc1ccc2c(c1)C(=O)/C(=C/c1ccc3ccccc3c1)CO2		MIC	93/V	12.5 µg/mL
CCC(C)n1ncn(-c2ccc(N3CCN(c4ccc(OC[C@H]5CO[C@](Cn6cncn6)(c6ccc(Cl)cc6Cl)O5)cc4)CC3)cc2)c1=O	broth dilution	MIC	ATCC 32264	0.15 µg/mL
Oc1ccccc1N=Cc1ccc(O)c(O)c1O		MIC99	LMM 820	11.3 µg/mL
COC1CC2CCC(C)C(O)(O2)C(=O)C(=O)N2CCCCC2C(=O)OC(C(C)CC2CCC(O)C(OC)C2)CC(=O)C(C)/C=C(\C)C(O)C(OC)C(=O)C(C)C[C@](C)(N(O)C(=O)NN2CCCCC2)/C=C/C=C/C=C/1C		MIC	WILD TYPE	1.56 µg/mL
COc1ccc(/C=C2\COc3ccccc3C2=O)cc1		MIC	93/V	50 µg/mL

2 of the rows above, restated:

{"smiles": "CCOC(=O)c1c(C)nc(OCCCNc2ccnc3cc(Cl)ccc23)nc1-c1ccccc1", "endpoint": "MIC99", "strain or isolate": "C-3-1", "value": "2 µg/mL"}
{"smiles": "CCC(C)n1ncn(-c2ccc(N3CCN(c4ccc(OC[C@H]5CO[C@](Cn6cncn6)(c6ccc(Cl)cc6Cl)O5)cc4)CC3)cc2)c1=O", "method": "broth dilution", "endpoint": "MIC", "strain or isolate": "ATCC 32264", "value": "0.15 µg/mL"}

An empty or dashed field is not shown. A number after MIC or MFC names an inhibition level or a share of isolates.